Data set [1] has as its system SARS-CoV-2 Beta variant N protein, SARS-CoV-2 Beta variant. The data set can be described thus: non-reducing SDS-PAGE and western blot of infected cells.
Data set [2] deals with SARS-CoV-2 Iota variant N protein, SARS-CoV-2 Iota variant. The data set can be described thus: non-reducing SDS-PAGE and western blot of infected and transfected cells. Background: Immunoblotting shows a protein as a band on a membrane.

As for SARS-CoV-2 Beta variant N protein, the result in data set [1] is “binds”.
In the case of SARS-CoV-2 Iota variant N protein, the result in data set [2] is “binds”.
